Measured values taken from PMC10465125 (eLife, 2023).
Where two headings read alike, the source gives them in different places.

How the values were obtained:
[1] = tested on: SARS-CoV-2 wild-type Spike Vpps
[2] = tested on: wild-type SARS-CoV-2 Spike Vpps
[3] = tested on: SARS-CoV-2 wild-type Spike Vpps; remark: listed apart in the source
[4] = tested on: wild-type SARS-CoV-2 Spike Vpps; remark: listed apart in the source

oligomeric proanthocyanidins [OPCs]
SI (ratio of CC50 to EC50) [1]: 76.82
SI (ratio of CC50 to EC50) [2]: 55.91
SI (ratio of CC50 to EC50) [3]: 40.06
SI (ratio of CC50 to EC50) [4]: 22.61
